Measured values from several laboratories, pooled; numbers as filed in NIAID ChemDB.

All rows: whole-cell or culture tests

Percent inhibition refers to the dose given; in toxicity tests it is the harm to the cells. Blank or dashed fields: not listed here. Rows are shuffled and stem from different studies.

structure | species | method | strain | dose | measure | value
CO[C@H]1/C=C/O[C@@]2(C)Oc3c(C)c(O)c4c(O)c(c5c(c4c3C2=O)NC2(CCN(CC(C)C)CC2)N=5)=NC(=O)/C(C)=C\C=C\[C@H](C)[C@H](O)[C@@H](C)[C@@H](O)[C@@H](C)[C@H](OC(C)=O)[C@@H]1C | Mycobacterium avium intracellulare | - | 953 | - | MIC | 1 µg/mL
CO[C@@]1(NC(=O)Cc2cccs2)C(=O)N2C(C(=O)O)=C(COC(N)=O)CS[C@@H]21 | Mycobacterium fortuitum | - | 1049 | - | MIC | 12.5 µg/mL
CCc1nc2ccc(Cl)cn2c1C(=O)NCc1ccc(C2CCN(c3ccc(OC4CC4)cc3)CC2)c(F)c1.Cl | Mycobacterium avium | fluorescence | - | 0.039 µM | inhibition | 85%
CC1(C)N=C(N)N=C(N)N1OCCCOc1cc(Cl)c(Cl)cc1Cl | Mycobacterium avium complex | - | 189 | - | MIC | 2 µg/mL
O=C(NCc1ccc(C2CCN(c3ccc(OC(F)(F)F)cc3)CC2)c(F)c1)c1c(C(F)(F)F)nc2ccc(Cl)cn12 | Mycobacterium avium | fluorescence | - | 0.013 µM | inhibition | 85%
C[C@@H](O)[C@H]1C(=O)N2C(C(=O)O)=C(SCCN=CN)C[C@H]12 | Mycobacterium fortuitum | - | 1059 | - | MIC | 12.5 µg/mL
CCc1nc2cc(F)ccn2c1C(=O)NCc1ccc(N2CCC(c3ccc(OC(F)(F)F)cc3)CC2)c(Cl)c1.Cl | Mycobacterium avium | fluorescence | - | 0.0077 µM | inhibition | 85%
CCCCC(=O)O[C@H]1[C@H](C)[C@@H](O[C@@H]2O[C@H](C)C[C@H](N(C)C)[C@H]2O)C(C)(O)C[C@@H](C)/C(=N\OCCCOc2ccccc2)[C@H](C)[C@@H](O)[C@](C)(O)[C@@H](CC)OC(=O)[C@@H]1C | Mycobacterium avium complex | - | 20092 (clarithromycin-resistant) | - | MIC | 6.25 µg/mL
Cc1cn2c(C(=O)NCc3ccc(N4CCN(c5ccc(OC(F)(F)F)cc5)[C@@H](C)C4)c(F)c3)c(C)nc2s1 | Mycobacterium avium | fluorescence | - | 0.82 µM | inhibition | 85%
CC[C@H]1OC(=O)[C@H](C)[C@@H](O[C@H]2C[C@@](C)(OC)[C@@H](OC(C)=O)[C@H](C)O2)[C@H](C)[C@@H](O[C@@H]2O[C@H](C)C[C@H](N(C)C)[C@H]2OC(=O)NNCc2ccccc2[N+](=O)[O-])C(C)(O)C[C@@H](C)/C(=N\OCCCC2CCCCC2)[C@H](C)[C@@H](O)[C@]1(C)O | Mycobacterium avium complex | - | 20092 (clarithromycin-resistant) | - | MIC | 0.39 µg/mL
CCc1nc2ccc(Cl)cn2c1C(=O)NCc1ccc(C2CCN(c3ccc(OC(F)(F)F)cc3)CC2)c(F)c1 | Mycobacterium avium | fluorescence | - | 0.033 µM | inhibition | 85%
CC[C@H]1OC(=O)[C@H](C)[C@@H](O[C@H]2C[C@@](C)(OC)[C@@H](OC(C)=O)[C@H](C)O2)[C@H](C)[C@@H](O[C@@H]2O[C@H](C)C[C@H](N(C)C)[C@H]2OC(=O)NN2CCCCC2)C(C)(O)C[C@@H](C)/C(=N\OCCCC2CCCCC2)[C@H](C)[C@@H](O)[C@]1(C)O | Mycobacterium avium complex | - | 20096 (clarithromycin-resistant) | - | MIC | 3.13 µg/mL
CO[C@@]1(NC(=O)CCCC(N)C(=O)O)C(=O)N2C(C(=O)O)=C(COC(N)=O)CSC21 | Mycobacterium fortuitum | - | 1047 | - | MIC | >100 µg/mL
CC[C@H]1OC(=O)[C@H](C)[C@@H](O[C@H]2C[C@@](C)(OC)[C@@H](OC(C)=O)[C@H](C)O2)[C@H](C)[C@@H](O[C@@H]2O[C@H](C)C[C@H](N(C)C)[C@H]2OC(=O)NNCc2ccccc2)C(C)(O)C[C@@H](C)/C(=N\OCCCC2CCCCC2)[C@H](C)[C@@H](O)[C@]1(C)O | Mycobacterium avium complex | - | 20092 (clarithromycin-resistant) | - | MIC | 0.78 µg/mL
CCc1nc2ccc(Cl)cn2c1C(=O)NCc1cc(F)c(N2CCC(c3ccc(OC(F)(F)F)cc3)CC2)c(F)c1.Cl | Mycobacterium avium | fluorescence | - | 0.011 µM | inhibition | 85%
CC[C@H]1OC(=O)[C@H](C)[C@@H](O[C@H]2C[C@@](C)(OC)[C@@H](OC(C)=O)[C@H](C)O2)[C@H](C)[C@@H](O[C@@H]2O[C@H](C)C[C@H](N(C)C)[C@H]2O)C(C)(O)C[C@@H](C)/C(=N\OCC2CCCCC2)[C@H](C)[C@@H](O)[C@]1(C)O | Mycobacterium avium complex | - | 20096 (clarithromycin-resistant) | - | MIC | 6.25 µg/mL
CO[C@@]1(NC(=O)CSCC#N)C(=O)N2C(C(=O)O)=C(CSc3nnnn3C)CS[C@@H]21 | Mycobacterium fortuitum | - | 1047 | - | MIC | 12.5 µg/mL
CC[C@H]1OC(=O)[C@H](C)[C@@H](O[C@H]2C[C@@](C)(OC)[C@@H](OC(C)=O)[C@H](C)O2)[C@H](C)[C@@H](O[C@@H]2O[C@H](C)C[C@H](N(C)C)[C@H]2OC(=O)NNCc2ccncc2)C(C)(O)C[C@@H](C)/C(=N\OCCCC2CCCCC2)[C@H](C)[C@@H](O)[C@]1(C)O | Mycobacterium avium complex | - | 20092 (clarithromycin-resistant) | - | MIC | 0.78 µg/mL
Cc1ccn2c(C(=O)NCc3ccc(C4CCN(c5ccc(OC(C)C)cc5)CC4)cc3F)c(C)nc2c1 | Mycobacterium avium | fluorescence | - | 0.94 µM | inhibition | 85%
CCCCCCCCCCCCCCCCO/N=C1\[C@H](C)CC(C)(O)[C@H](O[C@@H]2O[C@H](C)C[C@H](N(C)C)[C@H]2O)[C@@H](C)[C@H](OC2C[C@@](C)(OC)[C@@H](O)[C@H](C)O2)[C@@H](C)C(=O)O[C@H](CC)[C@@](C)(O)[C@H](O)[C@H]1C | Mycobacterium avium complex | - | 20096 (clarithromycin-resistant) | - | MIC | >50 µg/mL
CO[C@@]1(NC(=O)Cn2cnnn2)C(=O)N2C(C(=O)O)=C(CSc3nnc(C)s3)CSC21 | Mycobacterium fortuitum | - | 4-May | - | MIC | 50 µg/mL